Results of unrelated studies side by side (data: NIAID ChemDB).

All rows: tests on isolated targets; agent: HIV; protein: Reverse transcriptase; measure: IC50

ICn is the concentration giving n% inhibition. Blank or dashed fields: not listed here. Neighbouring rows are from separate reports.

SMILES	method	mutations	value
CCc1c(Cc2ccccc2)nc(SCC(=O)c2ccco2)[nH]c1=O	ELISA	-	0.45 µM
S=C(Cc1ccccn1)Nc1ccc(Cl)cc1	radiometric	L100I	>100 µM
CCN1c2ncc(CSc3cccc(OC)c3)cc2C(=O)Nc2c(C)cc(Cl)nc21	RT activity	K103N	0.428 µM
CNc1ccccc1C(=O)O[C@H]1[C@@H](O)[C@H](n2cnc3c(N)ncnc32)O[C@@H]1COP(=O)(O)OP(=O)(O)OP(=O)(O)OP(=O)(O)OC[C@@H]1CC[C@H](n2cnc3c(=O)[nH]c(N)nc32)O1	nucleotide incorporation / radiometric	RT-D67N K70R	2.5 µM
Nc1ccn([C@H]2CC[C@@H](COP(=O)(O)OP(=O)(O)OP(=O)(O)O)O2)c(=O)n1	nucleotide incorporation / radiometric	-	5 µM
CCc1c(Cc2ccccc2)nc(SCC(=O)c2ccc(OC)cc2)[nH]c1=O	ELISA	-	1.06 µM
CCN1c2nc(Cl)ccc2NC(=O)c2cc(CSc3cccc(C)c3)cnc21	RT activity	K103N	0.39 µM
CC(C)c1c(Cc2ccccc2)nc(SCC(=O)c2cccs2)[nH]c1=O	ELISA	-	37.8 µM
Nc1nc2c(ncn2[C@H]2CC[C@@H](COP(=O)(O)OP(=O)(O)OP(=O)(O)OP(=O)(O)OC[C@@H]3CC[C@H](n4cnc5c(=O)[nH]c(N)nc54)O3)O2)c(=O)[nH]1	nucleotide incorporation / radiometric	RT-D67N K70R T215Y K219Q	0.2 µM
Nc1nc2c(ncn2[C@H]2CC[C@@H](COP(=O)(O)OP(=O)(O)OP(=O)(O)O)O2)c(=O)[nH]1	nucleotide incorporation / radiometric	RT-F77L Q151M	0.045 µM
CCN1c2ncc(CSc3ccccc3)cc2C(=O)N(C)c2c(C)cc(Cl)nc21	RT activity	Y181C	0.507 µM
Cc1c(Cc2cccc3ccccc23)nc(SCC(=O)c2ccco2)[nH]c1=O	ELISA	-	5.99 µM
S=C(CCc1ccccc1)Nc1ccc(Cl)cn1	radiometric	K103N	>100 µM
Nc1nc2c(ncn2[C@H]2CC[C@@H](COP(=O)(O)OP(=O)(O)OP(=O)(O)O)O2)c(=O)[nH]1	nucleotide incorporation	RT-K263V	0.06 µM
S=C(Cc1ccccn1)NCCc1ccccc1	radiometric	Y181I	>100 µM
Cc1c(Cc2cccc3ccccc23)nc(SCCc2ccccc2)[nH]c1=O	ELISA	-	517 µM
Cc1ccnc2c1NC(=O)c1cc(N)cnc1N2C1CC1	RT activity	Y181C	61 µM
Nc1nc2c(ncn2[C@H]2CC[C@@H](COP(=O)(O)OP(=O)(O)OP(=O)(O)OP(=O)(O)OC[C@H]3O[C@@H](n4cnc5c(N)ncnc54)[C@H](O)[C@@H]3O)O2)c(=O)[nH]1	nucleotide incorporation / radiometric	RT-D67N K70R T215Y K219Q	0.74 µM
Cc1c(Cc2cccc3ccccc23)nc(SCC(=O)c2cccs2)[nH]c1=O	ELISA	-	1.86 µM
CCN1c2nc(Cl)ccc2NC(=O)c2cc(CSc3cccc(F)c3)cnc21	RT activity	Y181C	0.459 µM
Nc1nc2c(ncn2[C@H]2CC[C@@H](COP(=O)(O)OP(=O)(O)NP(=O)(O)OP(=O)(O)OC[C@H]3O[C@@H](n4cnc5c(N)ncnc54)[C@H](O)[C@@H]3O)O2)c(=O)[nH]1	nucleotide incorporation / radiometric	RT-D67N K70R T215Y K219Q	28 µM
CC(C)c1c(Cc2ccccc2)nc(SCC(=O)c2ccco2)[nH]c1=O	ELISA	-	0.43 µM
Cc1cc(Cc2ccc(Cl)c(Oc3cc(F)cc(C#N)c3)c2F)n[nH]c1=O	-	WT	0.001 µM
Cc1c(Cc2cccc3ccccc23)nc(Sc2cccs2)[nH]c1=O	ELISA	-	509 µM
Fc1cccc(F)c1CC(=S)Nc1ccc(Cl)cn1	radiometric	Y181I	>100 µM

The first 2 rows once more:

SMILES | method | mutations | value
CCc1c(Cc2ccccc2)nc(SCC(=O)c2ccco2)[nH]c1=O | ELISA | - | 0.45 µM
S=C(Cc1ccccn1)Nc1ccc(Cl)cc1 | radiometric | L100I | >100 µM